Measured values from several laboratories, pooled; numbers as filed in NIAID ChemDB.

All rows: enzyme or target tests

ICn is the concentration giving n% inhibition. Percent inhibition refers to the dose given; in toxicity tests it is the harm to the cells. Neighbouring rows are from separate reports. a–b is a range or a potency band. An empty or dashed field is not shown.

smiles | protein | agent | endpoint | tested at | result
O=C(Nc1ccc2cn[nH]c2c1)c1cc(NCCN2CCOCC2)c(F)cc1F | Reverse transcriptase | Hepatitis B virus | IC50 |  | >1 µg/mL
O=C(O)c1cc2nc(-c3ccc(Oc4ccccc4)cc3)cc(-c3ccccc3OCc3ccccc3)n2n1 | RNA-dependent RNA polymerase | Hepatitis C virus | IC50 |  | 1–10 µM
CCc1nc([C@@H]2C[C@@](CC(C)C)(C(=O)O)N(C(=O)c3ccc(C(C)(C)C)c(OC)c3)[C@H]2c2nccs2)no1 | RNA-dependent RNA polymerase | Hepatitis C virus | IC50 |  | <50 µM
O=C(O)c1ccc2c(c1)nc(-c1ccc3nc(-c4cn(-c5cccnc5Cl)c(=O)[nH]c4=O)ccc3c1)n2C1CCCCC1 | NS5B polymerase | Hepatitis C virus | inhibition | 33 µM | 95.34%
COc1cc(C(=O)N2[C@@H](c3cccs3)[C@@H](c3noc(C)n3)C[C@@]2(CC(C)C)C(=O)O)ccc1C(C)(C)C | RNA-dependent RNA polymerase | Hepatitis C virus | IC50 |  | <50 µM
O=C(Nc1ccsc1-c1nc(C(=O)O)c(O)c(=O)[nH]1)OCC1CCCCC1 | HCV polymerase | Hepatitis C virus | IC50 |  | <25 µM
CN(C)CCNc1cc(C(=O)Nc2ccc3[nH]ncc3c2)c(F)cc1F | Reverse transcriptase | Hepatitis B virus | inhibition | 0.01 µg/mL | 48%
Cc1noc([C@H]2C[C@@](CC(C)C)(C(=O)O)N(C(=O)c3ccc(C(C)(C)C)cc3)[C@H]2c2nccs2)n1 | RNA-dependent RNA polymerase | Hepatitis C virus | IC50 |  | <50 µM
CC[C@H](NC(=O)[C@@H](NC(=O)[C@@H](NC(=O)[C@H](CC(C)C)NC(=O)[C@@H](CCC(=O)O)NC(=O)[C@H](CC(=O)O)NC(C)=O)[C@@H](C)CC)C1CCCCC1)C(=O)CCCCCC(C)C | HCV NS3 protease | Hepatitis C virus | inhibition | 10 µM | 91%
O=C(c1ccc2c(c1)nc(-c1cc3ccc(-c4ccccc4-c4ccccc4)nc3cc1F)n2C1CCCCC1)N1CCC(O)CC1 | NS5B polymerase | Hepatitis C virus | inhibition | 33 µM | 84.34%
O=C(Nc1ccccc1)Nc1cscc1-c1nc(C(=O)O)c(O)c(=O)[nH]1 | HCV polymerase | Hepatitis C virus | IC50 |  | <25 µM
O=C(O)c1ccc2c(c1)nc(-c1ccc3nccc(NCCCCO)c3c1)n2C1CCCCC1 | NS5B polymerase | Hepatitis C virus | inhibition | 33 µM | 59.65%
Cc1ccc(S(=O)(=O)Nc2cc(-c3ccc(CO)cc3)sc2C(=O)O)c(C)c1 | NS3 ATPase | Hepatitis C virus | IC50 |  | <5 µM
O=C(Nc1ccc2[nH]ncc2c1)c1cc(NCCO)c(F)cc1F | Reverse transcriptase | Hepatitis B virus | IC50 |  | 0.1–1 µg/mL
O=C(O)CCNC(=O)c1ccc2c(c1)nc(-c1ccc3ncc(-c4ccccc4)cc3c1)n2C1CCCCC1 | NS5B polymerase | Hepatitis C virus | inhibition | 100 µM | 70.15%
CC[C@H](NC(=O)[C@@H](NC(=O)[C@@H](NC(=O)[C@H](CC(C)C)NC(=O)[C@@H](CCC(=O)O)NC(=O)[C@H](CC(=O)O)NC(C)=O)[C@@H](C)CC)C1CCCCC1)C(=O)/C=C/c1ccc(OC)cc1 | HCV NS3 protease | Hepatitis C virus | inhibition | 10 µM | 100%
CC(NC(=O)Nc1cccc(-c2nc(C(=O)O)c(O)c(=O)[nH]2)c1)c1cccc2ccccc12 | HCV polymerase | Hepatitis C virus | IC50 |  | <100 µM
O=C(O)c1cc2nc(-c3ccc(Cl)cc3)cc(-c3cc(Cl)cc(Cl)c3)n2n1 | RNA-dependent RNA polymerase | Hepatitis C virus | IC50 |  | >10 µM
NNc1cc(-c2ccccc2)nc2ccc(-c3nc4cc(C(=O)O)ccc4n3C3CCCCC3)cc12 | NS5B polymerase | Hepatitis C virus | inhibition | 33 µM | 92.92%
Cc1noc(C)c1-c1ccc(-c2nc3cc(C(=O)O)[nH]n3c(=O)c2C2CCCCC2)cc1 | RNA-dependent RNA polymerase | Hepatitis C virus | IC50 |  | 1–10 µM
O=C(Nc1ccsc1-c1nc(C(=O)O)c(O)c(=O)[nH]1)OCCc1c(F)cccc1Cl | HCV polymerase | Hepatitis C virus | IC50 |  | <25 µM
CC[C@H](NC(=O)[C@@H](NC(=O)[C@@H](NC(=O)[C@H](CC(C)C)NC(=O)[C@@H](CCC(=O)O)NC(=O)[C@H](CC(=O)O)NC(C)=O)[C@@H](C)CC)C1CCCCC1)C(O)/C=C/c1ccccc1 | HCV NS3 protease | Hepatitis C virus | IC50 |  | >10 µM
Cc1ccc(C(=O)N(C)c2cc(-c3ccc(O)cc3)sc2C(=O)O)cc1 | NS3 ATPase | Hepatitis C virus | IC50 |  | <5 µM
O=C(O)c1nc(-c2ccccc2NS(=O)(=O)NCc2ccccc2Cl)[nH]c(=O)c1O | HCV polymerase | Hepatitis C virus | IC50 |  | <100 µM
Cc1noc([C@H]2C[C@@](CC(C)C)(C(=O)O)N(C(=O)c3ccc(C(C)(C)C)c(C)c3)[C@H]2c2nccs2)n1 | RNA-dependent RNA polymerase | Hepatitis C virus | IC50 |  | <50 µM
Cc1cccc(C)c1N1CCN(C(=O)Nc2cc(-c3ccccc3)sc2C(=O)O)CC1 | NS3 ATPase | Hepatitis C virus | IC50 |  | >20 µM
CC(C)C[C@@]1(C(=O)O)C[C@H](c2nc3ccccc3s2)[C@H](c2nccs2)N1C(=O)c1ccc(C(C)(C)C)c(Br)c1 | RNA-dependent RNA polymerase | Hepatitis C virus | IC50 |  | <50 µM
O=C(O)c1cc2nc(-c3cccc(F)c3)c(C3CCCCC3)c(=O)n2[nH]1 | RNA-dependent RNA polymerase | Hepatitis C virus | IC50 |  | 1–10 µM
CC(C)C[C@@]1(C(=O)O)C[C@@H](c2ncno2)[C@H](c2nccs2)N1C(=O)c1ccc(C(C)(C)C)cc1 | RNA-dependent RNA polymerase | Hepatitis C virus | IC50 |  | <50 µM
O=C(O)c1cnn2c(C3CCCCC3)c(-c3ccc(F)cc3F)cnc12 | RNA-dependent RNA polymerase | Hepatitis C virus | IC50 |  | 1–10 µM
CC(Cc1ccccn1)Nc1cc(C(=O)Nc2ccc3cn[nH]c3c2)c(F)cc1F | Reverse transcriptase | Hepatitis B virus | inhibition | 1 µg/mL | 58%
CC[C@H](NC(=O)[C@@H](NC(=O)[C@@H](NC(=O)[C@H](CC(C)C)NC(=O)[C@@H](CCC(=O)O)NC(=O)[C@H](CC(=O)O)NC(C)=O)[C@@H](C)CC)C1CCCCC1)C(O)/C=C/CCCC(C)C | HCV NS3 protease | Hepatitis C virus | inhibition | 10 µM | 64%
Cc1cc(-c2nc3cc(C(=O)O)ccc3n2C2CCCCC2)cc2ccc(-c3ccccc3)nc12 | NS5B polymerase | Hepatitis C virus | inhibition | 33 µM | 95.57%
O=C(Nc1ccc2[nH]ncc2c1)c1cc(NCCN2CCOCC2)c(F)cc1F | Reverse transcriptase | Hepatitis B virus | inhibition | 1 µg/mL | 79%
O=C(O)c1cc2nc(-c3ccccc3)cc(-c3ccc(Cl)cc3)n2n1 | RNA-dependent RNA polymerase | Hepatitis C virus | IC50 |  | >10 µM
Cc1noc([C@H]2C[C@@](CC(C)C)(C(=O)O)N(C(=O)c3ccc(C(C)(C)C)c(Cl)c3)[C@H]2c2nccs2)n1 | RNA-dependent RNA polymerase | Hepatitis C virus | IC50 |  | <50 µM
O=C(O)c1c[nH]n2c(=O)cc(-c3ccccc3Cl)nc12 | RNA-dependent RNA polymerase | Hepatitis C virus | IC50 |  | >10 µM
O=C(O)c1sc(-c2ccccc2)cc1N(C(=O)c1ccc(Cl)cc1Cl)C1CCC(C(=O)O)C1 | NS3 ATPase | Hepatitis C virus | IC50 |  | <5 µM
O=C(O)c1nc(-c2cccc(Cl)c2)[nH]c(=O)c1O | HCV polymerase | Hepatitis C virus | IC50 |  | <100 µM
CC(C)C(=O)N(Cc1ccc(F)cc1F)c1cc(-c2ccccc2)sc1C(=O)O | NS3 ATPase | Hepatitis C virus | IC50 |  | 5–20 µM
O=C(O)c1nc(-c2ccccc2NS(=O)(=O)c2ccc(Cl)cc2)[nH]c(=O)c1O | HCV polymerase | Hepatitis C virus | IC50 |  | <100 µM
O=C(O)c1ccc2c(c1)nc(-c1ccc3nc(-c4cccc(Br)c4)ccc3c1)n2C1CCCCC1 | NS5B polymerase | Hepatitis C virus | inhibition | 100 µM | 101%

The first 4 rows once more:

smiles | protein | agent | endpoint | tested at | result
O=C(Nc1ccc2cn[nH]c2c1)c1cc(NCCN2CCOCC2)c(F)cc1F | Reverse transcriptase | Hepatitis B virus | IC50 |  | >1 µg/mL
O=C(O)c1cc2nc(-c3ccc(Oc4ccccc4)cc3)cc(-c3ccccc3OCc3ccccc3)n2n1 | RNA-dependent RNA polymerase | Hepatitis C virus | IC50 |  | 1–10 µM
CCc1nc([C@@H]2C[C@@](CC(C)C)(C(=O)O)N(C(=O)c3ccc(C(C)(C)C)c(OC)c3)[C@H]2c2nccs2)no1 | RNA-dependent RNA polymerase | Hepatitis C virus | IC50 |  | <50 µM
O=C(O)c1ccc2c(c1)nc(-c1ccc3nc(-c4cn(-c5cccnc5Cl)c(=O)[nH]c4=O)ccc3c1)n2C1CCCCC1 | NS5B polymerase | Hepatitis C virus | inhibition | 33 µM | 95.34%